Pooled drug test results. Numbers come from NIAID ChemDB, via PubChem.

Common to all: host cell toxicity; cells: Huh7; endpoint: CC50

Rows are shuffled and stem from different studies. Two numbers with a dash give a range or band. Blank or dashed fields: not listed here. CCn: concentration that lowers growth or viability of the cells by n%.

structure	read by	result
CC(C)Oc1nc(N)nc2ncc(-c3ccc(F)cc3)nc12		>20 µM
Cc1ccc(Sc2ccccc2)c(Nc2cccc3nc(C)ccc23)c1	MTT	15.9 µM
CCOc1nc(N)nc2ccc(-c3ccc(C(=O)NOC)cc3)nc12		>20 µM
Cc1ccc(Sc2ccc(O)cc2)c(Nc2ncnc3nc(C(C)(C)C)ccc23)c1	MTT	7.1 µM
COc1ccc(-c2cnc3nc(N)nc(N4CCN(CC(=O)N5CCOCC5)CC4)c3n2)cc1OC	ATP	>20 µM
CC(C)(CN1CCOCC1)NC(=O)c1ccc(-c2ccc3nc(N)nc(O[C@H]4CCOC4)c3n2)cc1		10–20 µM
Nc1nc(N2CCOCC2)c2nc(-c3cccnc3F)cnc2n1		10–20 µM
CC(=O)Nc1ccc(Sc2ccc(C)cc2Nc2ncnc3nc(C4CCC4)ccc23)cc1	MTT	49.2 µM
CS(=O)(=O)CCNc1nc(N)nc2ccc(-c3cccc(NS(=O)(=O)C4CC4)c3)nc12		>20 µM
CCOCCN1CCN(c2nc(N)nc3ncc(-c4ccc(OC)c(OC)c4)nc23)CC1	ATP	>20 µM
N#Cc1c(Nc2ccc(Br)nc2)s[nH]c1=O		>50 µM
Cc1ccc(Sc2ccc(O)cc2)c(Nc2ncnc3nc(C(C)C)ccc23)c1	MTT	22.9 µM
CCOc1nc(N)nc2ccc(-c3ccc(C(=O)NC4CC4)c(Cl)c3)nc12		>20 µM
CC(C)(C)C(=O)Nc1ccc(-c2cnc3nc(N)nc(N4CCOCC4)c3n2)cc1		10–20 µM
Nc1nc(N2CCS(=O)(=O)CC2)c2nc(-c3ccc(C(=O)NC4CC4)cc3)ccc2n1		10–20 µM
CC(C)C(=O)Nc1ccc(-c2cnc3nc(N)nc(N4CCOCC4)c3n2)cc1		10–20 µM
COc1ccc(-c2cnc3nc(N)nc(N4CCN(S(=O)(=O)c5ccccc5)CC4)c3n2)cc1OC	ATP	10–20 µM
CC(C)C(=O)Nc1ccc(-c2ccc3nc(N)nc(OCCF)c3n2)cc1		>20 µM
COc1ccc(-c2cnc3nc(N)nc(N4CCN(S(=O)(=O)Cc5ccccc5)CC4)c3n2)cc1OC	ATP	>20 µM
CCOc1nc(N)nc2ncc(-c3ccc(N)cc3)nc12		>20 µM
N#Cc1c(Nc2cc(Br)cc(C(F)(F)F)c2)s[nH]c1=O		>50 µM
CCCc1ccc2c(Nc3cc(C)ccc3Sc3ccc(NC(C)=O)cc3)ncnc2n1	MTT	>25 µM
CN(C)c1ccc(Nc2s[nH]c(=O)c2C#N)c2ccccc12		>50 µM
CC(C)C(=O)Nc1ccc(-c2ccc3nc(N)nc(N4CCS(=O)(=O)CC4)c3n2)cc1		>20 µM
CCOc1nc(N)nc2ncc(-c3ccc(C)cc3)nc12		>20 µM
Cc1ccc(Sc2ccc(O)cc2)c(Nc2ncnc3nc(N4CCCCC4)ncc23)c1	MTT	>50 µM
N#Cc1c(Nc2cccc([N+](=O)[O-])c2)s[nH]c1=O		>50 µM
COc1ccc(-c2cnc3nc(NCc4cccs4)nc(N)c3n2)cc1OC	ATP	10–20 µM
CCOc1nc(N)nc2ccc(-c3ccc(Nc4nncs4)cc3)nc12		>20 µM
N#Cc1c(Nc2ccc(I)cc2)s[nH]c1=O		>50 µM
CC(=O)Nc1ccc(-c2ccc3nc(N)nc(N4CCS(=O)(=O)CC4)c3n2)cc1		>20 µM
COc1ccc(-c2cnc3nc(N)nc(N4CCN(CC5CCCO5)CC4)c3n2)cc1OC	ATP	>20 µM
Cc1ccc(Sc2ccc(O)cc2)c(Nc2ncnc3nc(CC(C)C)ccc23)c1	MTT	11.2 µM
N#Cc1c(Nc2ccc(I)cc2Cl)s[nH]c1=O		<50 µM
COc1ccc(N2CCN(c3nc(N)nc4ncc(-c5ccc(OC)c(OC)c5)nc34)CC2)cc1	ATP	>20 µM
N#Cc1c(Nc2cc(F)c(Br)c(F)c2)s[nH]c1=O		>50 µM
CC[C@H](C)Nc1nc(N)nc2ncc(-c3ccc(OC)c(OC)c3)nc12	ATP	>20 µM

A second listing of 4 rows from above:

| structure | read by | result |
|---|---|---|
| CCOc1nc(N)nc2ccc(-c3ccc(C(=O)NC4CC4)c(Cl)c3)nc12 |  | >20 µM |
| CN(C)c1ccc(Nc2s[nH]c(=O)c2C#N)c2ccccc12 |  | >50 µM |
| Cc1ccc(Sc2ccc(O)cc2)c(Nc2ncnc3nc(N4CCCCC4)ncc23)c1 | MTT | >50 µM |
| Cc1ccc(Sc2ccccc2)c(Nc2cccc3nc(C)ccc23)c1 | MTT | 15.9 µM |